System: S. aureus
Assay: killing of bacteria by addition of hemin
Settings: oxygen required

In the case of hemin, the killing of bacteria is reported as “has been demonstrated”.
